The values below come from publication PMC6920372, “SKP2 attenuates autophagy through Beclin1-ubiquitination and its inhibition reduces MERS-Coronavirus infection” (2019).

The target of this experiment is ATG14 (African green monkey (endogenous in VeroB4; species of the cell line from memory)). The experiment is described as follows: cross-linking.

“And” between values parts separate entries of the source, which are not always exact repeats. Identical values can stand only once.

With ATG14 (natural protein), the stoichiometry N is 7 and 8.

A word on the stoichiometry N: it is a count of units in the complex or per binding partner.
